Source: ChEMBL document CHEMBL4819148, “Anti-protozoal and anti-fungal evaluation of 3,5-disubstituted 1,2-dioxolanes” (Bioorg Med Chem Lett, 2021)

System: HUVEC
Experiment: Cytotoxicity against HUVEC cells assessed as reduction in cell viability
Format: cell-based
Conditions: human

**Q.** `CCCCCCC1CC(N=[N+]=[N-])OO1` (stereo unspecified) was tested. Which CC50 did it give?
**A.** 12.2 µM
